From PMC9637222, “Autoinducer-2 and bile salts induce c-di-GMP synthesis to repress the T3SS via a T3SS chaperone” (Nature Communications, 2022)
Several values for one entry are separate records, joined by “and”; a condition that tells them apart may be missing. Identical values can stand only once.

Test system: SipB
Set-up: species or system S. Typhimurium
Details: ITC binding stoichiometry n, individual replicates, Supplementary Figure 19a
Experimental: ITC measurements were carried out at 20 °C with a Nano ITC Standard Volume isothermal calorimeter (TA Instruments, New Castle, DE) controlled by the ITCRun software. The N-terminal His6 tags of all purified proteins were removed before ITC analysis. For titrations with DPD/AI-2 (Omm Scientific), the tag-free proteins were dialyzed against a Tris buffer (25 mM Tris-HCl, 150 mM NaCl, pH 7.5) and diluted to 70 μM, while DPD/AI-2 was diluted with the same buffer to 700 μM. […] After being degassed, 1 ml of the protein and 250 μl of the ligand solution were added to the sample cell and the syringe, respectively. There were 25 injections per experiment and the stirring speed was 200 rpm. In control experiments, the ligand solution was titrated into the buffer in the sample cell to obtain the heat of dilution. Microcalorimetric data were corrected by subtracting the heats of dilution and fit to the independent binding site model using the NanoAnalyze software.
Supplementary Fig. 19 Isotherms representing binding of SicA and its variants with InvF, SipB and SipC as measured by ITC
ITC data and plots of injected heat for 25 automatic injections of 100 μM SicA (a, d, f),SicAK27A (b) or SicAN70A (c, e, g) into the sample cellcontaining 10 μM SipB (a-c), InvF (d, e), or SipC (f,g) are shown inthe upper and lower plots, respectively. […]

## SicA
  n, SicA binding to SipB: 1.08 and 1.16 and 1.05
